Measured values as given in patent US20240368664A1, “LIVE YEAST BIOSENSORS AND METHODS OF USE THEREOF” (priority 2021, published 2024).

Tests used:
CaPep2A = target: T1, CaPep2A
T1 chain: GARLTNFGYFEPG

CaPep2A13A = target: T2, CaPep2A13A
T2 chain: GARLTNFGYFEPA

B1: Candida albicans Bar1 aspartyl protease (CaBar1) (protein)
chain: MLFTILSLLVPSLAVAVSNTGGAVKLDLTISDEHMYYIENLALGTPPQFISNVIVDSGSSDLMIVDSIYNFSASSSFYNSNQTAIMKYGYGGQFPVYFINETIRSNDWKLSNLSMGLANISDMDSFSGILGIGFTRQELFKTNYSNFPYLLKDQGYTKSVLFSFNGQDQNPSIIFGGIITNIIDGPLVRAPFIKVISFINQLDYWLMPTFTVNQIKLGDTIVSNQKTLYQIDSGTNGFVPPTPVLNNILKILGDDYIQDDNGNIYFDIKYIEGLNITFSVQGYDIGFQLVDIVGDTIERNSTTFVALNVASCDIGYNAYEGLLPNLIFKYHYAIFDYDNAQIYFGKYKNSNGEANVVAVENGYQLPVPTVDVPDVEDTYSVIYIAESETTVTVAPTEVQSTYSSFSISEGTSSNLTSGSTSDDKITSVTSNPQYC
peptide cleavage (CaPep2A): a CaPep mutation in position 2 rendered the peptide non-cleavable
peptide cleavage (CaPep2A13A): retained that property in the CaPep2A13A variant of the cleavable CaPep13A
